# In patent US20240109955A1 (published 2024):
# Target: SARS-CoV-2 spike protein, Omicron sublineage BQ.1 (SARS-CoV-2, UniProt P0DTC2 14-1273)
# Experiment: cell-based or functional assay
Binder,"IC50, pseudovirus neutralization [nM]","IC80, pseudovirus neutralization [nM]"
MX1042 (bispecific antibody) DTVMTQSPLSLPVTPGEPASISCRSSQSLLNSNGYNYLDWYVQKPGQSPQLLIYLGSNRASGVPDRFSGSGSGTDFTLKISRVEAEDVGVYYCMQPLQTPLFTFGPGTKVEIKGGSSGEIVLTQSPGTLSLSPGETATLSCRASQSFSSDLAWYQQKPGQAPRLLIYGASSRATGIPDRFSGSGSGTDFTLTISRLEPADFAVYYCQQYGSSPPVTFGGGTKVEIKGGGGSGGSGSGGGGSASGSGEVQLVESGGGLIQPGGSLRLSCAASGVIVSYNYMNWVRQAPGKGLEWVSVIYSGGSTFYADSVRGRFTISRDNSKNTLYLQMNSLRAEDTAVYYCARDLGPAGAFDIWGLGTMVTVSSGGSSGQVTLRESGPALVKPTQTLTLTCTFSGFSLSTRGVCVSWIRQPPGKALEWLAFIDWDDDKYYNTSLKTRLTISKDTSKNQVVLTMTNVHPVDTATYYCARISSHHGSSWCTTFDYWGQGALVTVSAASGGSGDKTHTCPPCPAPELLGGPSVFLFPPKPKDTLMISRTPEVTCVVVDVSHEDPEVKFNWYVDGVEVHNAKTKPREEQYNSYVVSVLTVLHQDWLNGKEYKCKVSNKALPAPIEKTISKAKGQPREPQVYTLPPSRDELTKNQVSLTCLVKGFYPSDIAVEWESNGQPENNYKTTPPVLDSDGSFFKKLTVDKSRWQQGNVFSCSVLHEALHSHYTQKSLSLSPG,11.9,27.4
MX1043 (bispecific antibody) EIVLTQSPGTLSLSPGETATLSCRASQSFSSDLAWYQQKPGQAPRLLIYGASSRATGIPDRFSGSGSGTDFTLTISRLEPADFAVYYCQQYGSSPPVTFGGGTKVEIKGGSSGQTVVTQEPSFSVSPGGTVTLTCGLSSGSVSTAYFPSWYQQTPGQAPRTLIYGTNTRSSGVPDRFSGSILGNKAALTITGAQADDESDYYCVLYMGRGIVVFGGGTKLTVLGGGGSGGSGSGGGGSASGSGQVQLVESGGGVVQPGRSLRLSCAASGFTLSSYGMHWVRQAPGKGLEWVAVISYDGSNKYYVDSVKGRFTISRDNSKNTLYLQMNSLRAEDTAVYYCRWAYWELLPDYYYGMDVWGQGTTVTVSSGGSSGEVQLVESGGGLIQPGGSLRLSCAASGVIVSYNYMNWVRQAPGKGLEWVSVIYSGGSTFYADSVRGRFTISRDNSKNTLYLQMNSLRAEDTAVYYCARDLGPAGAFDIWGLGTMVTVSSASGGSGDKTHTCPPCPAPELLGGPSVFLFPPKPKDTLMISRTPEVTCVVVDVSHEDPEVKFNWYVDGVEVHNAKTKPREEQYNSYVVSVLTVLHQDWLNGKEYKCKVSNKALPAPIEKTISKAKGQPREPQVYTLPPSRDELTKNQVSLTCLVKGFYPSDIAVEWESNGQPENNYKTTPPVLDSDGSFFKKLTVDKSRWQQGNVFSCSVLHEALHSHYTQKSLSLSPG,2.64,15.1
